These are literature values, as cited in paper PMC12707294 (Analytical chemistry, 2025).

The chains behind the UniProt entries cited, without tags or fusion partners. Residues count along the entry.
UniProt P01556, 22-124 limits assumed: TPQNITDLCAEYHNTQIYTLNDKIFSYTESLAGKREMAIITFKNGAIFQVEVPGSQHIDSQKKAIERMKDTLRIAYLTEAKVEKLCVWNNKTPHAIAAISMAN

Usually Kd stands for the free concentration of one partner at which half of the binding sites on the other are occupied at equilibrium, for simple one-to-one binding.

The target of data set [1] is T1, Cholera toxin B subunit homopentamer (CTB5) (Vibrio cholerae serotype O1, UniProt P01556). The note with it: read-out: Intrinsic Kd; cited from earlier work.
The target of data set [2] is T1, Cholera toxin B subunit homopentamer (CTB5). The settings on record: read-out: Kd,int; cited from earlier work.

Read-outs that look alike come from different tables or passages of the source.

Take GM1 pentasaccharide [GM1os]: the Kd in data set [1] was 310 ± 20 nM; in data set [2] it was 156 ± 7 nM.
